According to PMC9242477, “Type B and type A influenza polymerases have evolved distinct binding interfaces to recruit the RNA polymerase II CTD” (2022):

Key:
[1] = target: G2-CTD (wild-type full-length CTD of RPB1 fused to G2 and the SV40 NLS); assay: split-gaussia luciferase complementation assay (in vivo CTD binding); details: parent: est. 100; read off a plot
[2] = target: G2-RPB1ΔCTD (CTD repeats 4 to 51 deleted); assay: split-gaussia luciferase complementation assay; details: transient transfection in HEK-293T cells; parent: est. 8.0; read off a plot

| Substance | percent of parent [1] | response [2] |
| --- | --- | --- |
| FluPolB (B/Memphis/13/2003) wt: PB2, PB1 and PA-G1 (from UniProt Q5V8Z9;Q5V8Y6;Q5V8X3) PA:R608A | 27 % of wt |  |
| FluPolB (B/Memphis/13/2003) wt: PB2, PB1 and PA-G1 (from UniProt Q5V8Z9;Q5V8Y6;Q5V8X3) PB2:K556A | 52 % of wt | 8.7 NLR |
| FluPolB (B/Memphis/13/2003) wt: PB2, PB1 and PA-G1 (from UniProt Q5V8Z9;Q5V8Y6;Q5V8X3) PB2:W553A; PB2:K556A | 98 % of wt |  |
| FluPolB (B/Memphis/13/2003) wt: PB2, PB1 and PA-G1 (from UniProt Q5V8Z9;Q5V8Y6;Q5V8X3) PB2:W553A | 140 % of wt |  |
| FluPolB (B/Memphis/13/2003) wt: PB2, PB1 and PA-G1 (from UniProt Q5V8Z9;Q5V8Y6;Q5V8X3) PA:K631A; PA:R634A |  | 8 NLR |
| FluPolB (B/Memphis/13/2003) wt: PB2, PB1 and PA-G1 (from UniProt Q5V8Z9;Q5V8Y6;Q5V8X3) PA:K450A | 98 % of wt | 7.6 NLR |
